Source: US8912343B2, “Solid forms of (1r,4r)-6′-fluoro-(N, N-dimethyl)-4-phenyl-4′,9′-dihydro-3′H-spiro[cyclohexane-1,1′-pyrano-[3,4,b]indol]-4-amine and sulfuric acid” (dated 2014)

Assay: Physical and chemical stability (storage, purity by HPLC, PXRD)

Substance: (1r,4r)-6′-fluoro-N,N-dimethyl-4-phenyl-4′,9′-dihydro-3′H-spiro[cyclohexane-1,1′-pyrano[3,4,b]indol]-4-amine sulfate
- Purity after 1 week at 80° C. (closed vials): 99.8 area %
- Purity after 4 weeks at 40° C., 75% r.h. (open vials): 99.7 area %
- Ref. Purity (reference, before storage): 100.0 area %
